The results in this text go back to PMC7035229.

By EC50 is commonly meant the concentration giving half of the maximal effect.

Where only a bound is given, the exact number is not on record here.

Assay [1] addresses recombinant murine prion protein PrP_(23–231) (mouse) (UniProt P04925). The assay is described as follows: ELISA.
Assay [2] has as its target cellular prion protein (PrP^C) of wild-type mouse primary cortical neurons (mouse (endogenous in mouse primary neurons)) (UniProt P04925). Nature of the assay: immunostaining of cells or tissue.

With “soluble aggregates of α-synuclein (SAAs) (from UniProt P37840 1-140) (natural protein)”, the 50% effective concentration (EC50) in assay [1] is 34.3 nM.
On to “soluble aggregates of Aβ_(1–42) (SBAs) (from UniProt P05067 672-713) (peptide)”, for which the reduction in binding to Prnp^−/− MPNs relative to WT in assay [2] is greater than 50%.
